Results as given in patent US11813270B2, “Nitric oxide-releasing antibacterial compounds, formulations, and methods pertaining thereto” (KNOW BIO, LLC, priority 2020, dated 2023).
Values joined by “and” are separate entries in the source; they are usually repeats but may differ in a detail not shown here. Equal values may be shown once.

Columns and labels:
P. aeruginosa biofilms = settings: exposure 18-24 h
P. aeruginosa [1] = assay: Anti-microbial activity (MBC) under aerobic and anaerobic growth conditions, 21 strains; settings: 21 strains of P. aeruginosa; two strains could not be grown anaerobically
Escherichia coli = assay: MIC/MBC assay (CLSI method); settings: Escherichia coli N0077; Carb-R, 3rd-gen Ceph-R, ESBL+, MDR
Acetinobacter baumannii = assay: MIC/MBC assay (CLSI method); settings: Acetinobacter baumannii N0075; Carb-R, XDR
Burkolderia cenocepacia = assay: MIC/MBC assay (CLSI method); settings: Burkolderia cenocepacia N0034; Clinical Isolate
Streptococcus pyogenes = assay: MIC/MBC assay (CLSI method); settings: Streptococcus pyogenes N0098; Erythromycin-R
Haemophilus influenzae = assay: MIC/MBC assay (CLSI method); settings: Haemophilus influenzae N0097; Chloramphenicol-R, Tet-R, and Amp-R
[2] = tested on: Staphylococcus aureus (MSSA); assay: MIC/MBC assay (CLSI method); settings: Staphylococcus aureus (MSSA) N0007; Wichita; ATCC 29213
P. aeruginosa [3] = assay: Time kill assay
Pseudomonas aeruginosa = assay: MIC/MBC assay (CLSI method); assay type: cell-based; settings: for MBC / MIC: Pseudomonas aeruginosa ATCC 19143
[4] = tested on: Staphylococcus aureus (MRSA); assay: MIC/MBC assay (CLSI method); assay type: cell-based; settings: for MBC, Rep 1 / MBC, Rep 2 / MIC, Rep 1 / MIC, Rep 2: Clinical isolate
Mycobacterium abscessus = assay: MIC/MBC assay (CLSI method); assay type: cell-based
[5] = P. aeruginosa N0049, PAK, Lab strain, unit not given
[6] = P. aeruginosa phenotype ATCC, obligate aerobe
[7] = P. aeruginosa phenotype MDR, CarbR, TobraR.
[8] = P. aeruginosa phenotype Not MDR, CarbS, TobraS. Mucoid
[9] = P. aeruginosa phenotype XDR, CarbR, TobraI.
[10] = P. aeruginosa phenotype XDR, CarbR, TobraR.
[11] = P. aeruginosa phenotype XDR, TobraR, CarbR. (first of three such strains, r19)
[12] = P. aeruginosa phenotype XDR, TobraR, CarbR. (second of three such strains, r21)
[13] = P. aeruginosa phenotype XDR, TobraR, CarbR. (third of three such strains, r23)
[14] = listed as NCT-19-096, sodium salt
[15] = listed as NCT-19-168, sodium salt
[16] = Pseudomonas aeruginosa N0049, PAK WT
[17] = S. aureus N0040, MRSA, unit not given
[18] = Staphylococcus aureus (MRSA) N0040, MDR, MRSA, Vanco-S
[19] = M. abcessus N0010, Clinical Isolate
[20] = M. abcessus N0016, Clinical Isolate
[21] = M. abcessus N0017, Clinical Isolate, listed as VT-20-110, sodium salt
[22] = M. abcessus N0018, Clinical Isolate
[23] = M. abcessus N0019, Clinical Isolate
[24] = M. abcessus N0020, Clinical Isolate
[25] = M. abscessus N0010, clinical, unit not given
[26] = M. abscessus N0016, clinical, unit not given
[27] = M. abscessus N0017, clinical, unit not given
[28] = M. abscessus N0018, clinical, unit not given
[29] = M. abscessus N0019, clinical, unit not given
[30] = M. abscessus N0020, clinical, unit not given
[31] = M. abscessus N0046, unit not given
[32] = Mycobacterium abcessus N0019, Clinical Isolate

methane trisdiazeniumdiolate sodium salt
four times as effective: effectiveness at killing bacteria relative to cis-DMP/NO (Mycobacterium abscessus; M. abscessus strains of Table 14)
0.125: MBC, Rep 1 (Pseudomonas aeruginosa; [5]) | MBC, Rep 2 (Pseudomonas aeruginosa; [5]) | MIC, Rep 1 (Pseudomonas aeruginosa; [5]) | MIC, Rep 1 [4, 17] | MIC, Rep 2 [4, 17]
2 mg/mL and 1 mg/mL: MBC (Mycobacterium abscessus; [21])
1 mg/ml: concentration resulting in a 3-log reduction of bacterial survival (MBC) (Mycobacterium abscessus; all 9 strains of Mycobacterium abscessus tested)
0.5 mg/mL and 0.25 mg/mL: MIC (Mycobacterium abscessus; [21]) | MIC (Mycobacterium abscessus; M. abcessus N0046, Ordway, listed as VT-20-110, sodium salt)
0.391 mg/ml: concentration sufficient to eradicate bacteria biofilms (>3-log reduction) (P. aeruginosa biofilms)
0.049 mg/mL: MBC (Pseudomonas aeruginosa; [14]) | MIC (Pseudomonas aeruginosa; [14]) | MIC against P. aeruginosa (Pseudomonas aeruginosa; combined composition of β-cyclodextrin and MTDD)
16 ×: MBC lower than the MBC of the MD3 OG-lib ([4]; S. aureus)
identical for 18 of the strains: activity under aerobic versus anaerobic growth conditions (P. aeruginosa [1])
0.25 mg/mL: MBC, Rep 1 (Escherichia coli) | MBC, Rep 2 (Escherichia coli) | MBC, Rep 1 (Acetinobacter baumannii) | MBC, Rep 2 (Acetinobacter baumannii) | MBC, Rep 2 (Haemophilus influenzae) | MBC, Rep 1 [4, 18] | MBC, Rep 2 [4, 18] | MIC (Mycobacterium abscessus; [19]) | MIC (Mycobacterium abscessus; [20]) | MIC (Mycobacterium abscessus; [22]) | MIC (Mycobacterium abscessus; [23]) | MIC (Mycobacterium abscessus; [24]) | MIC, Rep 1 (Mycobacterium abscessus; [32]) | MIC, Rep 2 (Mycobacterium abscessus; [32])
1 mg/mL: MBC (Mycobacterium abscessus; [19]) | MBC (Mycobacterium abscessus; [20]) | MBC (Mycobacterium abscessus; [22]) | MBC (Mycobacterium abscessus; [23]) | MBC (Mycobacterium abscessus; [24]) | MBC (Mycobacterium abscessus; M. abcessus N0046, Ordway) | MBC, Rep 1 (Mycobacterium abscessus; [32]) | MBC, Rep 2 (Mycobacterium abscessus; [32])
0.0625: MIC, Rep 2 (Pseudomonas aeruginosa; [5])
1: MBC (Mycobacterium abscessus; [25]) | MBC (Mycobacterium abscessus; [26]) | MBC (Mycobacterium abscessus; [27]) | MBC (Mycobacterium abscessus; [28]) | MBC (Mycobacterium abscessus; [29]) | MBC (Mycobacterium abscessus; [30]) | MBC (Mycobacterium abscessus; [31])
≤ 8 h: time to kill all bacteria (P. aeruginosa [3]; all doses greater than or equal to 0.125 mg/ml)
0.125 mg/mL: MIC, Rep 1 (Escherichia coli) | MIC, Rep 2 (Escherichia coli) | MBC, Rep 1 (Burkolderia cenocepacia) | MBC, Rep 2 (Burkolderia cenocepacia) | MBC, Rep 2 (Streptococcus pyogenes) | MBC, Rep 1 (Haemophilus influenzae) | MIC, Rep 1 (Haemophilus influenzae) | MIC, Rep 2 (Haemophilus influenzae) | MBC, Rep 1 [2] | MBC, Rep 2 [2] | MIC, Rep 1 [2] | MIC, Rep 2 [2] | MBC, rep 1 (Pseudomonas aeruginosa; [6]) | MBC, rep 2 (Pseudomonas aeruginosa; [6]) | MBC, rep 1 (Pseudomonas aeruginosa; [7]) | MBC, rep 2 (Pseudomonas aeruginosa; [7]) | MIC, rep 2 (Pseudomonas aeruginosa; [7]) | MBC, rep 1 (Pseudomonas aeruginosa; [8]) | MBC, rep 2 (Pseudomonas aeruginosa; [8]) | MBC, rep 1 (Pseudomonas aeruginosa; P. aeruginosa phenotype PAK WT) | MBC, rep 2 (Pseudomonas aeruginosa; P. aeruginosa phenotype PAK WT) | MIC, rep 1 (Pseudomonas aeruginosa; P. aeruginosa phenotype PAK WT) | MBC, rep 1 (Pseudomonas aeruginosa; [9]) | MBC, rep 2 (Pseudomonas aeruginosa; [9]) | MBC, rep 1 (Pseudomonas aeruginosa; [10]) | MBC, rep 2 (Pseudomonas aeruginosa; [10]) | MBC, rep 1 (Pseudomonas aeruginosa; [11]) | MBC, rep 2 (Pseudomonas aeruginosa; [11]) | MBC, rep 1 (Pseudomonas aeruginosa; [12]) | MBC, rep 2 (Pseudomonas aeruginosa; [12]) | MBC, rep 1 (Pseudomonas aeruginosa; [13]) | MBC, rep 2 (Pseudomonas aeruginosa; [13]) | MIC, rep 1 (Pseudomonas aeruginosa; [13]) | MBC, Rep 1 (Pseudomonas aeruginosa; [16]) | MBC, Rep 2 (Pseudomonas aeruginosa; [16]) | MIC, Rep 1 (Pseudomonas aeruginosa; [16]) | MIC, Rep 1 [4, 18] | MIC, Rep 2 [4, 18]
10^2 CFU/ml: concentration of PAK (P. aeruginosa [3]; 0.03125 mg/ml, pH 6.4, from 10^6, in three hours, stayed up to 25 hours (FIG. 14)) | concentration of PAK (P. aeruginosa [3]; 0.03125 mg/ml, pH 7.4, from 10^6, in eight hours, stayed up to 25 hours (FIG. 14)) | concentration of PAK (P. aeruginosa [3]; 0.0625 mg/ml, pH 6.4, from 10^6, in two hours, stayed up to 25 hours (FIG. 13)) | concentration of PAK (P. aeruginosa [3]; 0.125 mg/ml, pH 6.4, from 10^6, in two hours, stayed up to 25 hours (FIG. 12)) | concentration of PAK (P. aeruginosa [3]; 0.125 mg/ml, pH 7.4, from 10^6, in four hours, stayed up to 25 hours (FIG. 12)) | concentration of PAK (P. aeruginosa [3]; dosage printed 0.125 mg/ml, pH 7.4, from 10^6, in six hours, stayed up to 25 hours (FIG. 13))
0.0625 mg/mL: MBC, Rep 1 (Streptococcus pyogenes) | MIC, rep 2 (Pseudomonas aeruginosa; P. aeruginosa phenotype PAK WT) | MBC (Pseudomonas aeruginosa; [15]) | MIC (Pseudomonas aeruginosa; [15]) | MIC, Rep 2 (Pseudomonas aeruginosa; [16])
insufficient to kill all the bacteria: kill of bacteria at the lowest two doses evaluated (P. aeruginosa [3]; CAMHB, 37° C., survivors regrew by 24 hours)
10^5 CFU/ml: concentration of PAK (P. aeruginosa [3]; 0.125 mg/ml, pH 8.4, from 10^6, in six hours, stayed up to 25 hours (FIG. 12)) | concentration of PAK (P. aeruginosa [3]; dosage printed 0.125 mg/ml, pH 8.4, from 10^6, in eight hours (FIG. 13))
64 ×: MBC lower than the MBC of the MD3 NO-lib (Pseudomonas aeruginosa; P. aeruginosa)
10^6 CFU/ml: concentration of PAK (P. aeruginosa [3]; dosage printed 0.125 mg/ml, pH 8.4, at 25 hours (FIG. 13))
0.063 mg/mL: MIC, Rep 1 (Acetinobacter baumannii) | MIC, Rep 2 (Acetinobacter baumannii) | MIC, Rep 1 (Burkolderia cenocepacia) | MIC, Rep 2 (Burkolderia cenocepacia) | MIC, rep 1 (Pseudomonas aeruginosa; [6]) | MIC, rep 2 (Pseudomonas aeruginosa; [6]) | MIC, rep 1 (Pseudomonas aeruginosa; [7]) | MIC, rep 1 (Pseudomonas aeruginosa; [8]) | MIC, rep 2 (Pseudomonas aeruginosa; [8]) | MIC, rep 1 (Pseudomonas aeruginosa; [9]) | MIC, rep 2 (Pseudomonas aeruginosa; [9]) | MIC, rep 1 (Pseudomonas aeruginosa; [10]) | MIC, rep 2 (Pseudomonas aeruginosa; [10]) | MIC, rep 1 (Pseudomonas aeruginosa; [11]) | MIC, rep 2 (Pseudomonas aeruginosa; [11]) | MIC, rep 1 (Pseudomonas aeruginosa; [12]) | MIC, rep 2 (Pseudomonas aeruginosa; [12]) | MIC, rep 2 (Pseudomonas aeruginosa; [13])
0.25: MBC, Rep 1 [4, 17] | MBC, Rep 2 [4, 17] | MIC (Mycobacterium abscessus; [25]) | MIC (Mycobacterium abscessus; [26]) | MIC (Mycobacterium abscessus; [27]) | MIC (Mycobacterium abscessus; [28]) | MIC (Mycobacterium abscessus; [29]) | MIC (Mycobacterium abscessus; [30]) | MIC (Mycobacterium abscessus; [31])
below the limit of detection: bacteria titers (P. aeruginosa [3]; PBS, 37° C., all concentrations used)
0.125 mg/ml: concentration resulting in a 3-log reduction of bacteria (MBC) (Pseudomonas aeruginosa; all 9 strains of P. aeruginosa tested)
insufficient to significantly reduce: reduction of the concentration of PAK (CFU/ml) (P. aeruginosa [3]; 0.03125 mg/ml, pH 8.4 (FIG. 14))
0.03125 mg/mL: MIC, Rep 1 (Streptococcus pyogenes) | MIC, Rep 2 (Streptococcus pyogenes)
